In patent publication US5306619, “Screening assay for the detection of DNA-binding molecules” (Genelabs Technologies, Inc.):
At least one result comes from cells or an extract, where the contact may be indirect.

Amino acid sequences for entries named in this document (tags omitted). A change or cut given only in a name is not applied to a line headed by its entry.
UniProt P10193: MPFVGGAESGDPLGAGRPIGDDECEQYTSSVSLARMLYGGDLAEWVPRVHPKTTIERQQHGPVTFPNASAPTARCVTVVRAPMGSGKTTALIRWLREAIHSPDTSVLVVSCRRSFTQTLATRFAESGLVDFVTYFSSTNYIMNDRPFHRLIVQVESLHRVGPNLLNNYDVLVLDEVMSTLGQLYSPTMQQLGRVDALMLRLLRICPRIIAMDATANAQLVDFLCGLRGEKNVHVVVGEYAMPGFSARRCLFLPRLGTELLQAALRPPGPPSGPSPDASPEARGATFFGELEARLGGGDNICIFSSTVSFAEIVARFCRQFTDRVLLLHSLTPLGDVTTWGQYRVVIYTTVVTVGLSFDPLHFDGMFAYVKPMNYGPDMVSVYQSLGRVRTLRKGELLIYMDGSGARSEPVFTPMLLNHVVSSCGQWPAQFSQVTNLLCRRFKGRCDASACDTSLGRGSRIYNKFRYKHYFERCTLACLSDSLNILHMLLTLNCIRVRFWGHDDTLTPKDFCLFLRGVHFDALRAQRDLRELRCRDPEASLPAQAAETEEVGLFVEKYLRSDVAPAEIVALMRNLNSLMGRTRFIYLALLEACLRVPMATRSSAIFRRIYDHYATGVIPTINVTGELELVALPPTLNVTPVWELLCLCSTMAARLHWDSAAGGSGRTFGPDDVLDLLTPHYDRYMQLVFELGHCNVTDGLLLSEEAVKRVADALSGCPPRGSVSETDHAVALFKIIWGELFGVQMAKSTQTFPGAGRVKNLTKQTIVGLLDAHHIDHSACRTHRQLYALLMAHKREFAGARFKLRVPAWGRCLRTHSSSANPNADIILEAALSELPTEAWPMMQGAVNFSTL

Molecular target: UL9 full length (Herpes simplex virus 1) (UniProt P10193)
Experiment: competition with a labelled probe
Settings: unlabelled competitor used to measure dissociation; protein in an extract

Question: Does “GGTCGTTCGCACTTCGC (double strand) [17 bp competitor]” bind?
Answer: binds
